# Results as given in PubChem BioAssay AID1706 (The Scripps Research Institute Molecular Screening Center, 2009).
# The entries are a selection whose mix differs from that of the whole data set. The source made the active and inactive calls. No stated cut-off is given here; in the data, active means inhibition above about 12%; inactive means the rest.
# Biological target: Replicase polyprotein 1ab (Severe acute respiratory syndrome coronavirus) (UniProt P0C6X7)
# Test: blockers of SARS 3CLpro peptide cleavage – biochemical, quenched FRET, primary screen (AID 1706)
# Conditions: recombinant SARS-CoV 3CLpro, at 6 µM, active compounds read high
row,SMILES,inhibition
1,CN1CCC(Nc2ccc(Cl)cc2)CC1,inactive: -1.35%
2,CCCOc1ccc(C)cc1CN(CCCl)CCCl,inactive: 4.51%
3,COc1cc(OC)cc(C(=O)NCC2(N3CCOCC3)CCCCC2)c1,inactive: 0.76%
4,COc1cccc(C(=O)N(c2cc(C)cc(C)c2)C2CCN(C(=O)OC(C)(C)C)CC2)c1,inactive: 8.06%
5,CCC(CO)(C(=O)OC1CN2CCC1CC2)c1ccccc1 (centres undefined),inactive: 1.38%
6,O=C(O)C1(Nc2ccccc2)CCN(Cc2ccccc2)CC1,inactive: 1.71%
7,CC(C)(C)OC(=O)N1CCC(Nc2ccccc2)CC1,inactive: -0.93%
8,CCCOc1ccc(C(=O)NCC2(N(C)C)CCCCC2)cc1,inactive: 3.69%
9,CN1CCC(Nc2ccc(F)c(Cl)c2)CC1,inactive: 3.04%
10,CCOc1ncccc1C(=O)NCC1(N2CCOCC2)CCCCC1,inactive: -1.01%
11,CN(C)c1ccc(C(=O)NCC2(N3CCCCC3)CCCCC2)cc1,inactive: 0.99%
12,CCN1CCC(Nc2cccc(F)c2)CC1,inactive: -4.96%
13,COc1cc(OC)cc(C(=O)NCC2(N3CCCCC3)CCCCC2)c1,inactive: -1.2%
14,CN(C)C1(CNC(=O)c2cccc(C#N)c2)CCCCC1,inactive: -1.62%
15,CCCN1CCC(Nc2cc(OC)cc(OC)c2)CC1,inactive: 1.23%
16,c1ccc(CN2CCC(Nc3ccccc3)CC2)cc1,inactive: 1.54%
17,N#Cc1ccc(C(=O)NCC2(N3CCCCC3)CCCCC2)cc1,inactive: -1.01%
18,CC(C)(C)OC(=O)N1CCC(N(C(=O)c2ccccc2)c2ccc(Cl)cc2)CC1,inactive: 0.31%
19,O=C(OC1CN2CCC1CC2)C1c2ccccc2C=Cc2ccccc21 (centres undefined),inactive: -3.01%
20,CCOC(=O)N1CCC(Nc2ccc(C)cc2)CC1,inactive: -2.06%
21,N/C(=N\O)c1c(N)no[n+]1[O-],inactive: -2.3%
22,COc1ccc(C(=O)NCC2(N3CCOCC3)CCCCC2)cc1OC,inactive: -1.47%
23,CCCOc1ccc(C(=O)NCC2(N(C)C)CCCCC2)cc1OC,inactive: -6.47%
24,CN1CCC(Nc2cccc(F)c2)CC1,inactive: 0.81%
25,COc1cc(OC)c(C(=O)NCC2(N(C)C)CCCCC2)cc1OC,inactive: 1.34%
26,CC(C)c1ccc(NC2CCN(C(=O)OC(C)(C)C)CC2)cc1,inactive: 2.41%
27,CN(C)c1cccc(C(=O)NCC2(N3CCCCC3)CCCCC2)c1,inactive: 0.48%

row,SMILES,inhibition
1,COc1ccc(CN(CCCl)CCCl)cc1Cl,inactive: 3.27%
2,COc1cc(C(=O)NCC2(N3CCCCC3)CCCCC2)ccc1OC(F)F,inactive: -10.4%
3,O=C(NCC1(N2CCOCC2)CCCCC1)c1cc(=O)[nH]c2ccccc12,inactive: -3.58%
4,CN1CCN(CCOC(=O)C(O)(c2ccccc2)c2ccccc2)CC1,inactive: -0.43%
5,COc1ccc(NC2CCN(C(=O)OC(C)(C)C)CC2)cc1,inactive: 0.39%
6,O=C(NCC1(N2CCCCC2)CCCCC1)c1cccc(C(F)(F)F)c1,inactive: -7.59%
7,N#CC1(Nc2ccccc2)CCN(CCc2ccccc2)CC1,inactive: 2.16%
8,CCN1CCC(Nc2ccc(Cl)cc2)CC1,inactive: -1.1%
9,O=C(NCC1(N2CCCCC2)CCCCC1)c1cccc([N+](=O)[O-])c1,inactive: -3.09%
10,O=C(NCC1(N2CCCCC2)CCCCC1)c1ccc(OC(F)F)cc1,inactive: 2.34%
11,Cc1ccc(OCC(C)C)c(CN(CCCl)CCCl)c1,inactive: 1.76%
12,CCOC(=O)N1CCC(Nc2cccc(C)c2)CC1,inactive: 0.78%
13,COc1cc(C(=O)NCC2(N(C)C)CCCCC2)ccc1OC(F)F,inactive: -1.27%
14,COc1ccc(NC2CCN(CCc3ccccc3)CC2)c(OC)c1,inactive: 1%
15,CCOC(=O)N1CCC(Nc2ccc(F)cc2)CC1,inactive: -6.59%
16,O=C(NCC1(N2CCCCC2)CCCCC1)c1ccc(F)cc1,inactive: -0.61%
17,CCOc1ccc(C)cc1CN(CCCl)CCCl,inactive: 6.38%
18,N#CC1(Nc2ccccc2)CCN(Cc2ccccc2)CC1,inactive: 6.68%
19,O=C(OC1CN2CCC1CC2)C1c2ccccc2Oc2ccccc21 (centres undefined),inactive: 0.44%
20,CCOC(=O)N1CCC(Nc2ccc(OC)cc2)CC1,inactive: 0.85%
21,Cc1cc(C)cc(N(C(=O)c2ccccc2)C2CCN(C(=O)OC(C)(C)C)CC2)c1,inactive: -1.31%
22,O=C(NCC1(N2CCOCC2)CCCCC1)c1cc2ccccc2o1,inactive: 2.35%
23,CSc1ccccc1C(=O)NCC1(N2CCCCC2)CCCCC1,inactive: 0.51%
24,CC(C)(C)OC(=O)N1CCC(N(C(=O)c2ccccc2)c2ccc(F)cc2)CC1,inactive: 3.69%
25,COc1ccc(C(=O)NCC2(N3CCCCC3)CCCCC2)c(OC)c1OC,inactive: 0.33%
26,COc1ccc(C(=O)NCC2(N3CCCCC3)CCCCC2)cc1,inactive: 1.4%
27,O=C(NCC1(N2CCCCC2)CCCCC1)c1ccc(=O)[nH]c1,inactive: 1.97%
